Measured values reported in patent publication US12427200B2, “Compositions and methods for the treatment of viral infections” (priority 2019, dated 2025).

What was measured:
[1] = tested on: A/California/07/2009 H1N1 pdm; details: baloxavir 4 nM, oseltamivir 200 nM
[2] = tested on: A/California/04/09/H1N1 pdm; assay: Serial passage for selection of resistant virus, A549 cells; details: baloxavir 0.5 nM, oseltamivir 200 nM
[3] = tested on: A/WSN/1933 H1N1; assay: Serial passage for selection of resistant virus, MDCK cells; details: baloxavir 4 nM, oseltamivir 50 nM
[4] = biological target: H3N2 WT and E119V mutant neuraminidase (UniProt Q91MA2); details: read-out: H3N2 WT IC50; H3N2 WT
[5] = biological target: H3N2 WT and E119V mutant neuraminidase (UniProt Q91MA2, E119V, species not given); details: read-out: H3N2 E119V IC50; H3N2 E119V mutant
[6] = tested on: lung cytokines; assay: Study #58: lung cytokine levels day 4; type: in vivo, BALB/c mice; details: day 4 post-infection; 15 mg/kg PO, BID × 4
[7] = tested on: lung cytokines; assay: Study #55: lung cytokine levels day 4; type: in vivo, BALB/c mice; details: day 4 post-infection; 15 mg/kg PO, BID × 4
[8] = biological target: neuraminidase resistant mutants (lysates) (UniProt Q91MA2)
[9] = biological target: neuraminidase resistant mutants (lysates) (UniProt Q91MA2, E119V, species not given)
[10] = biological target: neuraminidase resistant mutants (lysates) (UniProt Q91MA2, R292K, species not given)

For `CCOC(=O)C1=C[C@@H](OC(CC)CC)[C@H](NC(C)=O)[C@@H](N)C1`, the “Passage after which titers reached PBS control levels” value (shortened to “Passage”) [1] was 8 passages, the “Passage” value [2] was 11 passages and the “Passage” value [3] was 10 passages.
Work on `C#CCOCCOCCOCCOCCC(=O)N(CCCCNC(=O)O[C@@H]([C@@H]1OC(C(=O)O)=C[C@H](NC(=N)N)[C@H]1NC(C)=O)[C@H](O)CO)CCOCCNC(=O)O[C@@H]([C@@H]1OC(C(=O)O)=C[C@H](NC(=N)N)[C@H]1NC(C)=O)[C@H](O)CO` yielded an IC50 [4] of 33.6 nM and an IC50 [5] of 174 nM.
For baloxavir, the “IL-6 fold-change as compared to uninfected control” value [6] was 0.99 fold-change, the “KC fold-change as compared to uninfected control” value [6] was 0.88 fold-change and the “MCP-1 fold-change as compared to uninfected control” value [6] was 0.80 fold-change. For the same molecule, the “MIP-1α fold-change as compared to uninfected control” value [6] was 1.04 fold-change, the “TNF-α fold-change as compared to uninfected control” value [6] was 1.07 fold-change and the “IL-6 fold-change as compared to uninfected control” value [7] was 1.05 fold-change. For the same molecule, the “INF-γ fold-change as compared to uninfected control” value [7] was 0.94 fold-change, the “KC fold-change as compared to uninfected control” value [7] was 0.85 fold-change and the “MCP-1 fold-change as compared to uninfected control” value [7] was 1.53 fold-change. The “MIP-1α fold-change as compared to uninfected control” value [7] was 0.97 fold-change, the “TNF-α fold-change as compared to uninfected control” value [7] was 1.12 fold-change and the “Passage” value [1] was 6 passages. The “Passage” value [2] was 5 passages and the “Passage” value [3] was 5 passages.
For `C#CCOCCOCCOCCOCCN(C)C(=O)O[C@@H]([C@H]1OC(C(=O)O)=C[C@@H](NC(=N)N)[C@@H]1NC(C)=O)[C@H](O)CO`, the IC50 [4] was 81 nM and the IC50 [5] was 629 nM.
With `C#CCOCCOCCOCCOCCNC(=O)CO[C@@H]([C@@H]1OC(C(=O)O)=C[C@H](NC(=N)N)[C@H]1NC(C)=O)[C@H](O)CNC(=O)C1CC1` the IC50 [4] was 95.7 nM and the IC50 [5] was 529 nM.
`C#CCOCCOCCOCCOCCC(=O)N(CCCCCCNC(=O)O[C@@H]([C@@H]1OC(C(=O)O)=C[C@H](NC(=N)N)[C@H]1NC(C)=O)[C@H](O)CO)CCOCCNC(=O)O[C@@H]([C@@H]1OC(C(=O)O)=C[C@H](NC(=N)N)[C@H]1NC(C)=O)[C@H](O)CO` showed an IC50 [4] of 32.9 nM and an IC50 [5] of 158 nM.
With `C#CCOCCOCCOCCOCCC(=O)N(CCCCNC(=O)O[C@@H]([C@@H]1OC(C(=O)O)=C[C@H](NC(=N)N)[C@H]1NC(C)=O)[C@H](O)CO)CCOCCOCCNC(=O)O[C@@H]([C@@H]1OC(C(=O)O)=C[C@H](NC(=N)N)[C@H]1NC(C)=O)[C@H](O)CO` the IC50 [4] was 34.5 nM and the IC50 [5] was 164 nM.
`C#CCOCCOCCOCCOCCNC(=O)O[C@@H]([C@@H]1OC(C(=O)O)=C[C@H](NC(=N)N)[C@H]1NC(C)=O)[C@H](O)CO` was tested, and the IC50 [4] was 32.9 nM and the IC50 [5] was 147 nM.
With `C#CCOCCOCCOCCOCCC(=O)N(CCOCCNC(=O)OC[C@@H](O)[C@@H](O)[C@@H]1OC(C(=O)O)=C[C@H](NC(=N)N)[C@H]1NC(C)=O)CCOCCNC(=O)OC[C@@H](O)[C@@H](O)[C@@H]1OC(C(=O)O)=C[C@H](NC(=N)N)[C@H]1NC(C)=O` the IC50 [4] was 4430 nM and the IC50 [5] was 14000 nM.
`C#CCOCCOCCOCCOCCC(=O)N(CCOCCNC(=O)O[C@@H]([C@@H]1OC(C(=O)O)=C[C@H](NC(=N)N)[C@H]1NC(C)=O)[C@H](O)CO)CCOCCOCCNC(=O)O[C@@H]([C@@H]1OC(C(=O)O)=C[C@H](NC(=N)N)[C@H]1NC(C)=O)[C@H](O)CO` gave an IC50 [4] of 33 nM and an IC50 [5] of 166 nM.
`C#CCOCCOCCOCCOCCC(=O)N(CCOCCOCCOCCNC(=O)O[C@@H]([C@@H]1OC(C(=O)O)=C[C@H](NC(=N)N)[C@H]1NC(C)=O)[C@H](O)CO)CCOCCOCCOCCNC(=O)O[C@@H]([C@@H]1OC(C(=O)O)=C[C@H](NC(=N)N)[C@H]1NC(C)=O)[C@H](O)CO` gave an IC50 [4] of 31.2 nM and an IC50 [5] of 108 nM.
`C#CCOCCOCCOCCOCCNC(=O)CO[C@@H]([C@@H]1OC(C(=O)O)=C[C@H](NC(=N)N)[C@H]1NC(C)=O)[C@H](O)CO` showed an IC50 [4] of 13.2 nM and an IC50 [5] of 23.2 nM.
For `C#CCOCCOCCOCCOCCC(=O)N(CCOCCNC(=O)O[C@@H]([C@@H]1OC(C(=O)O)=C[C@H](NC(=N)N)[C@H]1NC(C)=O)[C@H](O)CO)CCOCCNC(=O)O[C@@H]([C@@H]1OC(C(=O)O)=C[C@H](NC(=N)N)[C@H]1NC(C)=O)[C@H](O)CO`, the IC50 [8] was 21.1 nM, the IC50 [9] was 679 nM and the IC50 [10] was 994 nM. It also gave an IC50 [4] of 33.6 nM and an IC50 [5] of 186 nM.
